# Measured values published in PubChem BioAssay AID720532 (National Center for Advancing Translational Sciences (NCATS), 2013).
# The entries are a selection whose mix differs from that of the whole data set. Records with an inconclusive call do not appear. Calls of active or inactive are those of the source. The call rests on the fitted dose curve; tested in HEK293 cells.
# Experiment: qHTS for Inhibitors of binding or entry into cells for Marburg Virus
# Details: Marburg virus pseudotype entry/binding inhibition, cell-based
# On the % scale 0 is the no-effect control and ±100 the full control effect.
smiles,measurement,setting,value
CN(C)CCS,"activity change, negative = inhibition",at 49.2 µM (top of the series),inactive: 9.13%
O=[N+]([O-])[O-].[NH4+],"activity change, negative = inhibition",at 49.2 µM (top of the series),inactive: 1.14%
O=C(O)C1(O)c2ccccc2-c2ccccc21,"activity change, negative = inhibition",at 49.2 µM (top of the series),inactive: 24.9%
O=C(O)C(O)(c1ccccc1)c1ccccc1,"activity change, negative = inhibition",at 49.2 µM (top of the series),inactive: 3.59%
O=[N+]([O-])c1cccc([N+](=O)[O-])c1,"activity change, negative = inhibition",at 49.2 µM (top of the series),inactive: 10%
same,"activity change, negative = inhibition",at 107 µM (top of the series),inactive: 50%
O=[N+]([O-])OCC(CO[N+](=O)[O-])(CO[N+](=O)[O-])CO[N+](=O)[O-],"activity change, negative = inhibition",at 49.2 µM (top of the series),inactive: -4.36%
CC(C)N(CCCl)C(C)C,"activity change, negative = inhibition",at 49.2 µM (top of the series),inactive: -7.51%
C/C1=C2N=C(/C=C3N=C(/C(C)=C4\[N-][C@@](C)([C@@H]5N=C1[C@](C)(CCC(=O)NC[C@@H](C)OP(=O)([O-])O[C@H]1[C@@H](O)[C@@H](n6cnc7cc(C)c(C)cc76)O[C@@H]1CO)[C@H]5CC(N)=O)[C@@](C)(CC(N)=O)[C@@H]4CCC(N)=O)[C@@](C)(CC(N)=O)[C@@H]\3CCC(N)=O)C(C)(C)[C@@H]/2CCC(N)=O.[C-]#N.[Co+3],"activity change, negative = inhibition",at 17.8 µM (top of the series),inactive: -15.4%
CCN(CCCl)Cc1ccccc1C,"activity change, negative = inhibition",at 49.2 µM (top of the series),inactive: 4.84%
CCOP(=O)(CC)Oc1ccc([N+](=O)[O-])cc1 (stereo not given),"activity change, negative = inhibition",at 49.2 µM (top of the series),inactive: 18.4%
Cc1cccc([N+](=O)[O-])c1[N+](=O)[O-],"activity change, negative = inhibition",at 107 µM (top of the series),inactive: 46.8%
CP1(=O)OC(CCl)CC(CCl)O1 (stereo not given),"activity change, negative = inhibition",at 49.2 µM (top of the series),inactive: 76.6%
OCCSCCO,"activity change, negative = inhibition",at 49.2 µM (top of the series),inactive: -8.05%
CC(C)OP(=O)(F)OC(C)C,"activity change, negative = inhibition",at 49.2 µM (top of the series),inactive: 19.8%
